Measured values from several laboratories, pooled; numbers as filed in NIAID ChemDB.

All rows: tests in culture; species: Human cytomegalovirus

ECn is the concentration giving n% inhibition of infection, replication or growth. a–b is a range or a potency band. Rows are shuffled and stem from different studies. An empty or dashed field is not shown.

compound | read by | strain or isolate | cells | measure | value
Cn1c2ccccc2c2c3c(c4c5ccccc5n(CCC#N)c4c21)CNC3=O | plaque count | A6245 | HEF | EC50 | 0.05 µM
Nc1ccn(OC(/C=C/P(=O)(O)O)CO)c(=O)n1 | plaque count | AD169 | MRC-5 | EC50 | >300 µM
O=C(O)c1cc(O)c2c(c1)C(=O)c1cccc(O)c1C2=O | plaque count | AD169 | MRC-5 | EC50 | 5.6 µM
CCC(C)C(N)C(=O)O[C@H]1C[C@H](n2cc(/C=C/Br)c(=O)[nH]c2=O)O[C@@H]1COP1(=O)OCc2cccc(C)c2O1 | plaque count | AD169 | HELF | EC50 | >128 µg/mL
COC(=O)C(C)NOP(OC[C@H]1C/C1=C/n1cnc2c(N)[nH]c(=O)nc21)Oc1ccccc1 | plaque count | TOWNE | HFF | EC50 | >100 µM
CC(C)(C)C(=O)OCOC(=O)CN(CC(=O)OCOC(=O)C(C)(C)C)P(=O)(OC[C@H]1O[C@@H](n2cnc3c(N)ccnc32)C[C@@H]1O)Oc1ccccc1 | - | AD169 | HEL | EC50 | >20 µM
O=C1OCc2cc3cc4c(cc3c(-c3ccc5c(c3)OCO5)c21)OCO4 | plaque count | - | - | EC50 | 1.2 µM
C[C@H]1C[C@@H](n2cnc3c(N)ncnc32)[C@H](O)[C@@H]1O | plaque count | AD-169 (20 PFU) | HEL | EC50 | >100 µg/mL
COC(=O)[C@]1(O)C[C@@H]2O[C@@]1(C)n1c3ccccc3c3c4c(c5c6ccccc6n2c5c31)C(=O)NC4 | plaque count | A6245 | HEF | EC50 | 0.02 µM
Cc1cn([C@@H]2C[C@@H](O)[C@H](CO)O2)c(=O)[nH]c1=O | - | - | HFF | EC50 | >100 µM
Cc1cccc2c1OP(=O)(OC[C@H]1O[C@@H](n3cc(/C=C/Br)c(=O)[nH]c3=O)C[C@@H]1OC(=O)C(C)(C)C)OC2 | plaque count | AD169 | HELF | EC50 | >128 µg/mL
CC1=C(C)[C@](CO)(c2ccccc2)C[C@H]1n1ccc(N)nc1=O | cytopathic effect | AD169 | HEL 299 | EC50 | >100 µg/mL
COc1ccc2c(c1)COP(=O)(OC[C@H]1O[C@@H](n3cc(/C=C/Br)c(=O)[nH]c3=O)C[C@@H]1O)O2 | plaque count | AD169 | HELF | EC50 | >128 µg/mL
Nc1nc(Cl)nc2c1ncn2/C=C1/CC1CO | plaque count | TOWNE | HFF | EC50 | 3.5 µM
NC(=O)c1cn([C@@H]2O[C@H](CO)[C@@H](O)[C@@H]2O)c2ncnc(N)c12 | plaque count | TOWNE | HFF | EC50 | 0.8 µM
Cc1cccc2c1OP(=O)(OC[C@H]1O[C@@H](n3cc(/C=C/Br)c(=O)[nH]c3=O)C[C@@H]1OC(=O)[C@@H](N)Cc1ccccc1)OC2 | plaque count | AD169 | HELF | EC50 | >128 µg/mL
CC(C)Nc1nc2nc3cc(Cl)c(Cl)cc3nc2n1C1OC(CO)C(O)C1O | plaque count | TOWNE | HFF | EC50 | 32 µM
Nc1ncnc2c1ncn2/C=C1/C[C@H]1CO | plaque count | AD169 | HFF | EC50 | 6.9 µM
O=C(O)C[C@H](NCCN[C@@H](CC(=O)O)C(=O)O)C(=O)O | plaque count | CMV5USA | HEL | EC50 | 11.7 µg/mL
Nc1ccn([C@@H]2C[C@@H](O)[C@H](CO)O2)c(=O)n1 | - | - | HFF | EC50 | >100 µM
Nc1nc2c(ncn2[C@H]2C[C@@H](O)[C@H](CO)O2)c(=O)[nH]1 | cytopathic effect | AD169 | MRC-5 | EC50 | >1000 µM
Nc1ccnc2c1ncn2[C@H]1C[C@H](O)[C@@H](COP(=O)(O)COC(=O)[C@@H](N)CC(=O)O)O1 | - | AD169 | HEL | EC50 | >100 µM
COC(=O)C(C)NP(=O)(OC[C@H]1C/C1=C/n1cnc2c(N)nc(N)nc21)Oc1ccccc1 | plaque count | TOWNE | HFF | EC50 | 3 µM
Nc1nc2c(ncn2[C@H]2C=C[C@@H](CO)CC2)c(=O)[nH]1 | plaque count | DAVIS | HEL | EC50 | 3.97 µg/mL
O=c1ccn([C@@H]2O[C@@H](CO)[C@H](O)[C@H]2O)c(=O)[nH]1 | cytopathic effect | AD169 | MRC-5 | EC50 | >1000 µM
N#Cc1cn([C@@H]2O[C@H](CO)[C@@H](O)[C@@H]2O)c2ncnc(N)c12 | - | TOWNE | HFF | EC50 | 4.1 µM
Nc1nc2c(ncn2COC(CO)CO)c(=O)[nH]1 | plaque count | Ganciclovir-resistant | MRC-5 | EC50 | 191 µM
CC1=C(C)C(CO)(CO)C[C@H]1n1cnc2c(N)ncnc21 | cytopathic effect | AD169 | HEL 299 | EC50 | 30.1 µg/mL
CCCCCC(=O)O[C@H]1C[C@H](n2cc(/C=C/Br)c(=O)[nH]c2=O)O[C@@H]1COP1(=O)OCc2cccc(C)c2O1 | plaque count | AD169 | HELF | EC50 | >128 µg/mL
C[C@H](O)C1=C[C@@H](n2cnc3c(N)ncnc32)[C@H](O)[C@@H]1O | plaque count | DAVIS (20 PFU) | HEL | EC50 | 8.8 µg/mL
Nc1ccn(C[C@@H](CO)OCP(=O)(O)O)c(=O)n1 | plaque count | AD169 | HEL | EC50 | 0.2 µg/mL
Nc1ncnc2c1ncn2[C@@H]1C[C@H](c2ccccc2)[C@@H](O)[C@H]1O | cytopathic effect | AD-169 (100 PFU) | HEL | EC50 | 60 µg/mL
CCOC(=O)C1=Cc2cc3c(cc2[C@@H](c2ccc4c(c2)OCO4)[C@@H]1C(=O)OCC)OCO3 | plaque count | - | - | EC50 | 25 µM
O=c1[nH]c(=O)n([C@H]2C[C@H](O)[C@@H](COP3(=O)OCc4cc(-c5ccccc5)ccc4O3)O2)cc1/C=C/Br | plaque count | AD169 | HELF | EC50 | >128 µg/mL
CC1=CC(S(=O)(=O)O)=C(Nc2cccc3c2C(=O)c2cccc(Nc4ccc(C)cc4S(=O)(=O)O)c2C3=O)CC1 | luciferase | - | MRC-5 | EC50 | 183 µM
Nc1ncnc2c1ncn2OCC/C=C\P(=O)(O)O | plaque count | AD169 | MRC-5 | EC50 | >300 µM
Cc1cn([C@H]2C=C[C@@H](CO)O2)c(=O)[nH]c1=O | - | - | NHDF | EC50 | >100 µM
C[C@H]1[C@@H](OC(=O)CCC(=O)O)O[C@@H]2O[C@@]3(C)CC[C@H]4[C@H](C)CC[C@@H]1[C@@]24OO3 | plaque count | AD169 | MRC-5 | EC50 | 1.96 µM
Nc1nc2c(ncn2COCCO)c(=O)[nH]1 | plaque count | AD169 | MRC-5 | EC50 | 44 µM
CC[C@H]1C[C@@H](n2cnc3c(N)ncnc32)[C@H](O)[C@@H]1O | cytopathic effect | AD-169 (100 PFU) | HEL | EC50 | >100 µg/mL
CCCC/C(O)=C(\C#N)C(=O)Nc1ccc(C(F)(F)F)cc1 | plaque count | MAJOR | HEL 299 | EC50 | 830–1090 µM
CCOC(=O)C1=Cc2cc(OC)c(OC)c(OC)c2[C@@H](c2ccc3c(c2)OCO3)[C@@H]1C(=O)OCC | plaque count | - | - | EC50 | 1.4 µM
O=C(O)Cc1cc(O)ccc1O | cytopathic effect | AD169 | HEL | EC50 | 6.2 µg/mL
NC(=O)c1cn([C@@H]2O[C@H](CO)[C@@H](O)[C@H]2O)c2ncnc(N)c12 | plaque count | TOWNE | HFF | EC50 | 0.03 µM
Nc1ncnc2c1ncn2CCOCP(=O)(O)O | - | - | NHDF | EC50 | 39 µM
Nc1nccc2c1ncn2C(C=O)OC(C=O)CO | cytopathic effect | DAVIS (100 PFU) | HEL | EC50 | 1.1 µg/mL
Cc1cccc2c1OP(=O)(OC[C@H]1O[C@@H](n3cc(/C=C/Br)c(=O)[nH]c3=O)C[C@@H]1OC(=O)[C@@H](C)N)OC2 | plaque count | AD169 | HELF | EC50 | >128 µg/mL
Nc1nc2c(ncn2[C@@H]2C=C[C@H](CO)CC2)c(=O)[nH]1 | plaque count | AD169 | HEL | EC50 | 0.47 µg/mL
Nc1nc2c(ncn2[C@@H]2O[C@@H](CO)[C@H](O)[C@H]2O)c(=O)[nH]1 | cytopathic effect | AD169 | MRC-5 | EC50 | >1000 µM
CC(C)(C)C(=O)OCOC(=O)CN(CC(=O)OCOC(=O)C(C)(C)C)P(=O)(OC[C@H]1O[C@@H](n2cc(/C=C/Br)c(=O)[nH]c2=O)C[C@@H]1O)Oc1ccccc1 | - | AD169 | HEL | EC50 | >20 µM
N#Cc1cn([C@@H]2O[C@H](CO)C[C@H]2O)c2ncnc(N)c12 | virus yield | - | HFF | EC90 | 1.4 µM
C=C(/C=C/P(=O)(O)O)CCn1cnc2c(=O)[nH]c(N)nc21 | cytopathic effect | AD169 | MRC-5 | EC50 | >250 µM
Oc1cccc(O)c1O | cytopathic effect | AD169 | HEL | EC50 | 4 µg/mL
O=C1NCc2c1c1c3ccccc3[nH]c1c1[nH]c3ccccc3c21 | plaque count | Isolate 6 | HEF | EC50 | 0.13 µM
Nc1ccn(C[C@@H](CO)OCP(=O)(O)O)c(=O)n1 | - | DAVIS | HEL | EC50 | 0.8 µM
Cc1cn([C@H]2C[C@@H](O)[C@H](CO)O2)c(=O)[nH]c1=O | cytopathic effect | AD169 | MRC-5 | EC50 | >1000 µM
COC(=O)C(C)NP(=O)(OC[C@@H]1C/C1=C/n1cnc2c(N)nc(N)nc21)Oc1ccccc1 | plaque count | AD169 | HFF | EC50 | >42 µM
Nc1ncnc2c1ncn2OC(/C=C/P(=O)(O)O)CO | plaque count | AD169 | MRC-5 | EC50 | >300 µM
Nc1ncnc2c1ncn2/C=C1/C[C@@H]1CO | plaque count | AD169 | HFF | EC50 | 1.9 µM
Cc1cc(O)c2c(c1)Cc1cc(O)cc(O)c1C2=O | plaque count | Ganciclovir-resistant | MRC-5 | EC50 | 4.7 µM
Nc1ncnc2c1ncn2OCC/C=C/P(=O)(O)O | plaque count | AD169 | MRC-5 | EC50 | >300 µM
O=c1[nH]c(=O)n(C2CC(O)C(CO)O2)cc1/C=C/Br | - | AD169 | HEL | EC50 | >100 µM
OCC1OC(n2cnc3nc4cc(Cl)c(Cl)cc4nc32)C(O)C1O | plaque count | TOWNE | HFF | EC50 | 32 µM
O=C(O)c1cc(O)c(O)c(O)c1 | cytopathic effect | DAVIS | HEL | EC50 | 7 µg/mL
Nc1ncnc2c1ncn2CC/C=C/P(=O)(O)O | plaque count | AD169 | MRC-5 | EC50 | >300 µM
Nc1nc2c(ncn2COC(CO)CO)c(=O)[nH]1 | plaque count | DAVIS | HEL | EC50 | 0.7 µg/mL
O=C(O)c1cc(O)ccc1O | cytopathic effect | AD169 | HEL | EC50 | 8 µg/mL

Again, the opening 7 rows:

Cn1c2ccccc2c2c3c(c4c5ccccc5n(CCC#N)c4c21)CNC3=O ; read by: plaque count ; strain or isolate: A6245 ; cells: HEF ; measure: EC50 ; value: 0.05 µM
Nc1ccn(OC(/C=C/P(=O)(O)O)CO)c(=O)n1 ; read by: plaque count ; strain or isolate: AD169 ; cells: MRC-5 ; measure: EC50 ; value: >300 µM
O=C(O)c1cc(O)c2c(c1)C(=O)c1cccc(O)c1C2=O ; read by: plaque count ; strain or isolate: AD169 ; cells: MRC-5 ; measure: EC50 ; value: 5.6 µM
CCC(C)C(N)C(=O)O[C@H]1C[C@H](n2cc(/C=C/Br)c(=O)[nH]c2=O)O[C@@H]1COP1(=O)OCc2cccc(C)c2O1 ; read by: plaque count ; strain or isolate: AD169 ; cells: HELF ; measure: EC50 ; value: >128 µg/mL
COC(=O)C(C)NOP(OC[C@H]1C/C1=C/n1cnc2c(N)[nH]c(=O)nc21)Oc1ccccc1 ; read by: plaque count ; strain or isolate: TOWNE ; cells: HFF ; measure: EC50 ; value: >100 µM
CC(C)(C)C(=O)OCOC(=O)CN(CC(=O)OCOC(=O)C(C)(C)C)P(=O)(OC[C@H]1O[C@@H](n2cnc3c(N)ccnc32)C[C@@H]1O)Oc1ccccc1 ; strain or isolate: AD169 ; cells: HEL ; measure: EC50 ; value: >20 µM
O=C1OCc2cc3cc4c(cc3c(-c3ccc5c(c3)OCO5)c21)OCO4 ; read by: plaque count ; measure: EC50 ; value: 1.2 µM